Results of unrelated studies side by side (data: NIAID ChemDB).

Common to all: tests in culture

Conditions beyond the fields shown may differ between rows. ECn: concentration that inhibits the pathogen or its effect by n%. Zone: diameter of growth inhibition. A number after MIC or MFC names an inhibition level or a share of isolates. Blank or dashed fields: not listed here.

SMILES,species,strain,changes,method,setting,endpoint,dose,value
Clc1ccc(COC(Cn2ccnc2)c2ccc(Cl)cc2Cl)c(Cl)c1,Candida albicans,LM 42V,-,broth dilution,-,MIC100,-,32 µg/mL
COc1cc(O)c2c(c1)OC(c1ccc(O)cc1)CC2=O,Candida dubliniensis,ATCC 7978,-,broth dilution,-,MIC,-,630 µg/mL
O=[N+]([O-])c1cc(C[Se]c2nnnn2C2CCCCC2)cc([N+](=O)[O-])c1,Candida tropicalis,156,-,broth dilution,24 h,EC80,-,>500 µM
O=C(NCCc1ccc2c(c1)OCO2)c1ccc(F)cc1,Candida albicans,Clinical isolate,Fluconazole-resistant,broth dilution,-,MIC80,-,>64 µg/mL
CN(C/C=C/C#CC(C)(C)C)Cc1cccc2ccccc12,Candida guilliermondii,24 clinical isolates,-,broth dilution,-,MIC50,-,2 µg/mL
O=[N+]([O-])c1cc(CSc2cccc[n+]2[O-])cc([N+](=O)[O-])c1,Candida krusei,E28,-,broth dilution,48 h,EC80,-,>500 µM
COC(=O)/C=C1/NN=C(c2ccccn2)N(c2ccccn2)C1=O,Candida spp.,Clinical isolates (7 strains),-,agar diffusion,-,MIC50,-,512 µg/mL
O=C(Cc1ccccc1O)NCCc1ccc2c(c1)OCO2,Candida albicans,Clinical isolate,Fluconazole-resistant,broth dilution,-,MIC80,-,>64 µg/mL
Cc1ccccc1O,Candida dubliniensis,-,-,broth dilution,-,MIC,-,400 µg/mL
Clc1ccc(C(Cn2ccnc2)OCc2ccc(Sc3ccccc3)cc2)c(Cl)c1,Candida tropicalis,19 isolates,-,-,-,MIC90,-,8 µg/mL
COc1ccc2c(Cc3ccc(C(C)C)cc3)c3n(cc-2c1=O)CCc1cc2c(cc1-3)OCO2,Candida lusitaniae,ATCC 42720,-,broth dilution,-,MIC,-,8 µg/mL
Cc1ccc(O)cc1,Candida dubliniensis,-,-,broth dilution,-,MIC,-,880 µg/mL
COc1cc2occ(-c3ccc(O)cc3)c(=O)c2c(OC)c1CC=C(C)C,Candida guilliermondii,Clinical isolate,-,broth dilution,-,MIC,-,12.5 µg/mL
C[C@@H](c1ncncc1F)[C@](O)(Cn1cncn1)c1ccc(F)cc1F,Candida guilliermondii,Clinical isolates,-,broth dilution,-,MIC,-,0.06 µg/mL
O=C(O)/C=C/c1ccccc1,Candida parapsilosis,PYCC 2545,-,broth dilution / turbidity,-,EC50,-,0.18 µM
C=CCc1ccc(OC)c(OC)c1,Candida dubliniensis,-,-,broth dilution,-,MIC,-,3830 µg/mL
O=C1C(c2ccc(Oc3ccccc3)cc2)=[N+]([O-])c2ccccc21,Candida colliculosa,-,-,-,-,MFC,-,>125 µg/mL
CCOC(=O)C1C(c2ccccc2)CC(c2ccc(OC)cc2)=CC12NCCN2,Candida spp.,Strains 6 and 6,-,-,-,MIC,-,12.5 µg/mL
Clc1ccc(COC(Cn2ccnc2)c2ccc(Cl)cc2Cl)c(Cl)c1,Candida tropicalis,19 isolates,-,-,-,MIC90,-,8 µg/mL
CCC(C)n1ncn(-c2ccc(N3CCN(c4ccc(OC[C@H]5CO[C@](Cn6cncn6)(c6ccc(Cl)cc6Cl)O5)cc4)CC3)cc2)c1=O,Candida glabrata,77 isolates,-,-,-,MIC50,-,1 µg/mL
Oc1ccccc1,Candida dubliniensis,-,-,broth dilution,-,MIC,-,>45260 µg/mL
CCOC(=O)C1C(c2ccc(F)cc2)CC(c2ccccc2)=CC12NCCN2,Candida neoformans,-,-,-,-,MIC,-,50 µg/mL
CC(C)=CCOc1ccc(C2CC(=O)c3c(O)cc(O)cc3O2)cc1,Candida spp.,Candida inconspicua,-,agar diffusion / agar,-,zone,100 µg/mL,0 mm
CCCCCCCCOc1ccc(-c2ccc(C(=O)NC3CC(NCCN)CNC(=O)[C@@H]4[C@@H](O)[C@@H](C)CN4C(=O)[C@@H](CO)NC(=O)[C@H]([C@H](O)Cc4ccccc4)NC(=O)[C@@H]4C[C@@H](O)CN4C(=O)[C@H]([C@@H](C)O)NC3=O)cc2)cc1,Candida lusitaniae,NEM_7104301,-,resazurin,-,MIC,-,1 µg/mL
COc1ccc2c(Cc3ccc(F)cc3)c3[n+](cc2c1OC)CCc1cc2c(cc1-3)OCO2.[Br-],Candida albicans,Clinical isolate,Fluconazole-resistant,broth dilution,-,MIC80,-,64 µg/mL
COc1ccccc1O,Candida dubliniensis,-,-,broth dilution,-,MIC,-,10 µg/mL
C[C@@H](c1nc(-c2ccc(C#N)cc2)cs1)[C@](O)(Cn1cnnc1)c1ccc(F)cc1F,Candida albicans,Isogenic isolate 4 MDR1 (25X),-,-,-,MIC,-,0.015 µg/mL
Cc1c(N2CC3CCC(C)(N)C3C2)c(F)cn2c(=O)c(C(=O)O)cc(C3CC3)c12.Cl,Candida albicans,CCH442,-,-,-,MIC,-,>100 µg/mL
O=C(O)c1cccc(-n2nnnc2SCc2cc([N+](=O)[O-])cc([N+](=O)[O-])c2)c1,Candida tropicalis,156,-,broth dilution,24 h,EC80,-,>500 µM
C[C@@H]1[C@H](O)[C@@H](C)/C=C/C=C/CC/C=C/C=C/C=C/C=C/C(O[C@H]2O[C@H](C)[C@@H](O)[C@H](N)[C@@H]2O)CC2O[C@](O)(CC(O)C(O)CCC(O)CC(O)CC(O)CC(=O)O[C@H]1C)CC(O)C2C(=O)O,Candida dubliniensis,CBS 7987,-,broth dilution,-,MIC,-,3.9 µg/mL
C=CCOc1ccc(C2CC(=O)c3c(O)cc(O)cc3O2)cc1,Candida dubliniensis,-,-,agar diffusion / agar,-,zone,100 µg/mL,0 mm
COc1ccc2c(c1OC)C[N+]1(Cc3ccccc3C)CCc3cc4c(cc3C1C2)OCO4.[Br-],Candida albicans,Clinical isolate,Fluconazole-resistant,broth dilution,-,MIC80,-,>64 µg/mL
O=C(O)c1ccccc1O,Candida lusitaniae,PYCC 2705,-,broth dilution / turbidity,-,EC50,-,0.1 µM
Cc1ccc(C(C)C)cc1O,Candida dubliniensis,-,-,broth dilution,-,MIC,-,250 µg/mL
Clc1ccc(COC(Cn2ccnc2)c2ccc(Cl)cc2Cl)c(Cl)c1,Candida guilliermondii,Clinical isolates,-,broth dilution,-,MIC,-,0.5 µg/mL
CC[C@H](N)[C@@H]1CCN(c2c(F)cn3c(=O)c(C(=O)O)cc(C4CC4)c3c2C)C1.Cl,Candida albicans,CCH442,-,-,-,MIC,-,12.5 µg/mL
Oc1cc(O)c2c(c1)OC(c1ccc(O)c(O)c1)[C@@H](O)C2,Candida tropicalis,Clinical isolate 1,-,broth dilution,-,MIC50,-,>128 µg/mL
CCOC(=O)C1C(c2ccc(Cl)cc2)CC(c2ccccc2)=CC12NCCN2,Candida neoformans,-,-,-,-,MIC,-,200 µg/mL
C[C@@H](c1ncncc1F)[C@](O)(Cn1cncn1)c1ccc(F)cc1F,Candida glabrata,77 isolates,-,-,-,MIC50,-,0.5 µg/mL
COc1ccc2c(Cc3ccc(C(C)C)cc3)c3[n+](cc2c1OC)CCc1cc2c(cc1-3)OCO2,Candida lusitaniae,ATCC 42720,-,broth dilution,-,MIC,-,8 µg/mL
Nc1[nH]c(=O)ncc1F,Candida tropicalis,19 isolates,-,-,-,MIC50,-,0.12 µg/mL
C[C@@H](c1ncncc1F)[C@](O)(Cn1cncn1)c1ccc(F)cc1F,Candida guilliermondii,24 clinical isolates,-,broth dilution,-,MIC50,-,≤0.031 µg/mL
C=CCc1ccc(O)c(-c2ccc(O)c(CC=C)c2)c1,Candida albicans,YL 342,-,broth dilution,-,MIC,-,128 µg/mL
Cc1c(N2C[C@@H]3CCC[C@H](N)[C@H]3C2)c(F)cn2c(=O)c(C(=O)O)cc(C3CC3)c12.Cl,Candida albicans,CCH442,-,-,-,MIC,-,>100 µg/mL
COc1cc(C[C@H](C)[C@H](C)Cc2ccc(O)c(O)c2)ccc1O,Candida krusei,CCC 117-2000,-,broth dilution,-,MIC100,-,125 µg/mL
COc1ccc2c(Cc3ccc(C(C)C)cc3)c3[n+](cc2c1OCc1ccccc1)CCc1cc2c(cc1-3)OCO2,Candida lusitaniae,ATCC 42720,-,broth dilution,-,MIC,-,8 µg/mL
c1ccc([Se][Se]c2ccccc2)cc1,Candida dubliniensis,CBS 7987,-,broth dilution,-,MFC,-,32 µg/mL
Cc1ccc(Oc2c(C3C(C#N)=C(N)OC4=C3C(=O)CCC4)c(C)nn2-c2ccc(C)cc2)cc1,Candida spp.,MTCC 227,-,-,-,MIC,-,500 µg/mL
CCOC(=O)C1C(c2ccc(C)cc2)CC(c2ccc(Cl)cc2)=CC12NCCN2,Candida spp.,Strains 6 and 6,-,-,-,MIC,-,25 µg/mL
Cc1c(N2C[C@@H](N)[C@@H](F)C2)c(F)cn2c(=O)c(C(=O)O)cc(C3CC3)c12.Cl,Candida albicans,CCH442,-,-,-,MIC,-,>100 µg/mL
COc1ccc2c(Cc3ccccc3Br)c3[n+](cc2c1OC)CCc1cc2c(cc1-3)OCO2.[Br-],Candida albicans,Clinical isolate,Fluconazole-resistant,broth dilution,-,MIC80,-,32 µg/mL
Clc1ccc(CCC(Cn2ccnc2)Sc2c(Cl)cccc2Cl)cc1,Candida tropicalis,19 isolates,-,-,-,MIC90,-,1 µg/mL
O=[N+]([O-])c1cc(CSc2nnnn2-c2ccc(Cl)c(Cl)c2)cc([N+](=O)[O-])c1,Candida krusei,E28,-,broth dilution,48 h,EC80,-,>125 µM
O=Cc1cc(O)ccc1O,Candida parapsilosis,ATCC 22019,-,broth dilution / turbidity,-,EC50,-,0.88 µM

For reference, 6 entries again:

SMILES | species | strain | changes | method | setting | endpoint | dose | value
Cc1ccc(Oc2c(C3C(C#N)=C(N)OC4=C3C(=O)CCC4)c(C)nn2-c2ccc(C)cc2)cc1 | Candida spp. | MTCC 227 | - | - | - | MIC | - | 500 µg/mL
C[C@@H]1[C@H](O)[C@@H](C)/C=C/C=C/CC/C=C/C=C/C=C/C=C/C(O[C@H]2O[C@H](C)[C@@H](O)[C@H](N)[C@@H]2O)CC2O[C@](O)(CC(O)C(O)CCC(O)CC(O)CC(O)CC(=O)O[C@H]1C)CC(O)C2C(=O)O | Candida dubliniensis | CBS 7987 | - | broth dilution | - | MIC | - | 3.9 µg/mL
Clc1ccc(COC(Cn2ccnc2)c2ccc(Cl)cc2Cl)c(Cl)c1 | Candida albicans | LM 42V | - | broth dilution | - | MIC100 | - | 32 µg/mL
Clc1ccc(CCC(Cn2ccnc2)Sc2c(Cl)cccc2Cl)cc1 | Candida tropicalis | 19 isolates | - | - | - | MIC90 | - | 1 µg/mL
O=C(Cc1ccccc1O)NCCc1ccc2c(c1)OCO2 | Candida albicans | Clinical isolate | Fluconazole-resistant | broth dilution | - | MIC80 | - | >64 µg/mL
C[C@@H](c1nc(-c2ccc(C#N)cc2)cs1)[C@](O)(Cn1cnnc1)c1ccc(F)cc1F | Candida albicans | Isogenic isolate 4 MDR1 (25X) | - | - | - | MIC | - | 0.015 µg/mL